In article PMC10870819:

Biological target: SARS-CoV RBD (residues 306-527) (SARS-CoV) (UniProt P59594)
Experiment: SPR

hare ACE2 (residues 1-615)
Kd: 86.5 nM

rabbit ACE2 (residues 1-615), 293F-expressed (from UniProt G1TEF4)
Kd: 107 nM
